A mixed list of measured activities; the numbers were collected in NIAID ChemDB.

Shared fields: growth or infection tests; organism: Rhinovirus; read-out: EC50

ECn: concentration that inhibits the pathogen or its effect by n%. Lines come from different laboratories, so protocols vary.

Cc1cc(CCCCCOc2c(Cl)cc(C3=NCCO3)cc2Cl)on1 ; strain: TYPE 66 ; cells: HeLa ; method: plaque count ; value: 0.2 µg/mL
Cc1ccc(Cn2cnc3c(Nc4cccc(F)c4)nc(C(F)(F)F)nc32)cc1 ; strain: Serotype 1B ; cells: M-HELA ; method: plaque count ; value: 1.7 µM
Cc1cc(Cl)ccc1Cn1cnc2c(N(C)C)nc(C(F)(F)F)nc21 ; strain: Serotype 29 ; cells: M-HELA ; method: plaque count ; value: >8 µM
Cc1cc(CCCOc2c(C)cc(-c3noc(C(F)(F)F)n3)cc2C)on1 ; strain: Isolate 37 ; cells: OHIO HELA-I ; method: cytopathic effect / visual reading ; value: 0.05 µg/mL
Cc1ccccc1Cn1cnc2c(N(C)C)nc(C(F)(F)F)nc21 ; strain: Serotype 5 ; cells: M-HELA ; method: plaque count ; value: >8 µM
CCOC(=O)c1ccc(OCCC2CCN(c3ccc(C)nn3)CC2)cc1 ; strain: 204-CV14 (ICAM-1 receptor group 10) ; cells: KB ; method: neutral red ; value: 0.596 µM
CSc1nsc(-c2ccc(OCCCCOc3ccc([N+](=O)[O-])cc3)cc2)c1C#N ; strain: Serotype 51 (group B) ; cells: HELA-OHIO ; method: cytopathic effect ; value: >0.5 µM
CSc1nsc(-c2ccc(O)cc2)c1C#N ; strain: Serotype 14 (group A) ; cells: HELA-OHIO ; method: cytopathic effect ; value: >10 µM
Cc1c(-c2ccccc2)n(-c2ccc(F)cc2)c2ccc(C(C)C)cc2c1=O ; strain: 3 (FEB) ; cells: HELA-OHIO ; method: cytopathic effect ; value: >2 µg/mL
CN(C)c1ccc(Cn2cnc3c(N(C)C)nc(C(F)(F)F)nc32)cc1 ; strain: Serotype 15 ; cells: M-HELA ; method: plaque count ; value: >8 µM
CSc1nsc(-c2ccc(OCCCCOc3ccc(C#N)cc3)cc2)c1C#N ; strain: Serotype 63 (group B) ; cells: HELA-OHIO ; method: cytopathic effect ; value: >2 µM
Cc1ccc(Cn2cnc3c(N(C)C)nc(C(F)(F)F)nc32)c(C)c1 ; strain: Serotype 5 ; cells: M-HELA ; method: plaque count ; value: >8 µM
CSc1nsc(-c2ccc(OCCOc3ccc([N+](=O)[O-])cc3)cc2)c1C#N ; strain: Serotype 2 (group B) ; cells: HELA-OHIO ; method: cytopathic effect ; value: >2 µM
CSc1nsc(-c2ccccc2)c1C#N ; strain: Serotype 63 (group B) ; cells: HELA-OHIO ; method: cytopathic effect ; value: >80 µM
CCOC(=O)c1ccc(OCCCOc2ccc(-c3snc(SC)c3C#N)cc2)cc1 ; strain: Serotype 15 (group B) ; cells: HELA-OHIO ; method: cytopathic effect ; value: >2 µM
CN(C)c1nc(C(F)(F)F)nc2c1ncn2Cc1ccc(Cl)cc1Cl ; strain: Serotype 31 ; cells: M-HELA ; method: plaque count ; value: >8 µM
Cc1c(-c2ccccc2)n(-c2cccc(F)c2)c2ccc(C(C)C)cc2c1=O ; strain: 14/1059 ; cells: HELA-OHIO ; method: cytopathic effect ; value: >1 µg/mL
CSc1nsc(-c2ccc(OS(=O)(=O)c3ccc(C)cc3)cc2)c1C#N ; strain: Serotype 41 (group B) ; cells: HELA-OHIO ; method: cytopathic effect ; value: >25 µM
Fc1cccc(Cn2cnc3c(Nc4cccc(F)c4)nc(C(F)(F)F)nc32)c1 ; strain: Serotype 7 ; cells: M-HELA ; method: plaque count ; value: 1.9 µM
CCOC(=O)c1ccc(OCCCCOc2ccc(-c3snc(SC)c3C#N)cc2)cc1 ; strain: Serotype 70 (group A) ; cells: HELA-OHIO ; method: cytopathic effect ; value: >2 µM
Cc1cc(Cn2cnc3c(N(C)C)nc(C(F)(F)F)nc32)ccc1Cl ; strain: TYPE 1B ; cells: M-HELA ; method: plaque count ; value: 0.12 µM
CSc1nsc(-c2ccc(OCCCOc3ccc(C#N)cc3)cc2)c1C#N ; strain: Serotype 42 (group A) ; cells: HELA-OHIO ; method: cytopathic effect ; value: >2 µM
CN(C)c1nc(C(F)(F)F)nc2c1ncn2Cc1ccc(Cl)c(NC=O)c1 ; strain: Serotype 15 ; cells: M-HELA ; method: plaque count ; value: >8 µM
CCn1c2c(c(=O)c3cc(C(C)C)ccc31)Cc1ccccc1-2 ; strain: 10/204-CV14 ; cells: HELA-OHIO ; method: cytopathic effect ; value: 1.8 µg/mL
CSc1nsc(-c2ccc(OCCCOc3ccccc3)cc2)c1C#N ; strain: Serotype 51 (group B) ; cells: HELA-OHIO ; method: cytopathic effect ; value: >20 µM

The last 3 rows once more:

structure | strain | cells | method | value
CN(C)c1nc(C(F)(F)F)nc2c1ncn2Cc1ccc(Cl)c(NC=O)c1 | Serotype 15 | M-HELA | plaque count | >8 µM
CCn1c2c(c(=O)c3cc(C(C)C)ccc31)Cc1ccccc1-2 | 10/204-CV14 | HELA-OHIO | cytopathic effect | 1.8 µg/mL
CSc1nsc(-c2ccc(OCCCOc3ccccc3)cc2)c1C#N | Serotype 51 (group B) | HELA-OHIO | cytopathic effect | >20 µM